Compound potency records, mixed from different reports. Data source: NIAID ChemDB in PubChem.

All rows: whole-cell or culture tests; agent: Aspergillus flavus; read-out: zone

Blank or dashed fields: not listed here.

| structure | tested at | strain | method | value |
|---|---|---|---|---|
| O=C(CNC(=O)c1ccncc1)NN1C(=O)CSC1c1ccccc1Cl | 50 µg/mL |  | agar diffusion | 18 mm |
| COc1ccc(NCc2cc3ccccc3nc2Cl)cc1 | 200 µg/mL | MTCC 277 | agar diffusion | 12.96 mm |
| O=C(CNC(=O)c1ccncc1)NN1C(=O)CSC1c1cccc([N+](=O)[O-])c1 | 100 µg/mL |  | agar diffusion | 27.2 mm |
| COc1ccc(-c2nn(-c3ccccc3)cc2C2CC(c3ccc(Cl)cc3Cl)=NN2c2ccccc2)cc1 | 500 µg/mL |  |  | 0 mm |
| COc1ccc2[nH]c3nc(NNC(=O)c4ccccc4C(=O)O)c4ccccc4c3c2c1 | 25 µg/mL | MTCC-1973 | agar diffusion / visual reading | 5 mm |
| OC(Cn1cncn1)(Cn1cncn1)c1ccc(F)cc1F | 100 µg/mL |  |  | 98 mm |
| CN1C(=O)/C(=c2/[nH][nH]c(=O)/c2=C\c2ccc3c(c2)OCO3)C(=O)c2ccccc21 | 1 mg/mL | ATCC 28542 | agar diffusion | 12 mm |
| CN(Cc1cc2ccccc2nc1Cl)c1ccc(F)c(Cl)c1 | 200 µg/mL | MTCC 277 | agar diffusion | 20.82 mm |
| COc1ccccc1C1SCC(=O)N1NC(=O)CNC(=O)c1ccncc1 | 50 µg/mL |  | agar diffusion | 12 mm |
| Clc1ccc(-c2nn(-c3ccccc3)cc2C2CC(c3ccc(Cl)cc3Cl)=NN2c2ccccc2)cc1 | 500 µg/mL |  |  | 2 mm |
| COc1ccc2[nH]c3c(c2c1)c1ccccc1c1nnc(C(C)(C)C)n13 | 25 µg/mL | MTCC-1973 | agar diffusion / visual reading | 5 mm |
| CN(Cc1cc2ccccc2nc1Cl)c1cccc(Cl)c1 | 200 µg/mL | MTCC 277 | agar diffusion | 12.08 mm |
| CC(C)(C)c1nnc2c3ccccc3c3c4cc(Cl)ccc4[nH]c3n12 | 12.5 µg/mL | MTCC-1973 | agar diffusion / visual reading | 5 mm |
| O=C(CNC(=O)c1ccncc1)NN1C(=O)/C(=C/c2ccccc2Cl)SC1c1ccccc1Cl | 100 µg/mL |  | agar diffusion | 19 mm |
| O=C(NN1C(=O)CSC1C1C(c2ccccc2)=Nc2ccc(Cl)cc21)N1c2ccccc2C=Cc2ccccc21 | 1000 µg/mL | MTCC-1973 | agar diffusion | 13 mm |
| Cn1c(=O)c(-c2[nH][nH]c(=O)c2C=Nc2ccccc2)c(O)c2ccccc21 | 1 mg/mL | ATCC 28542 | agar diffusion | 11 mm |
| O=C(NN1C(=O)CSC1C1C(c2ccccc2)=Nc2ccccc21)N1c2ccccc2C=Cc2ccccc21 | 1000 µg/mL | MTCC-1973 | agar diffusion | 3 mm |
| Clc1ccc(C2=NN(c3ccccc3)C(c3cn(-c4ccccc4)nc3-c3ccc(Br)cc3)C2)c(Cl)c1 | 1000 µg/mL |  |  | 4 mm |
| Cc1ccc2c(c1)C(C=NNC(=O)N1c3ccccc3C=Cc3ccccc31)C(c1ccccc1)=N2 | 1000 µg/mL | MTCC-1973 | agar diffusion | 5 mm |
| O=C(CNC(=O)c1ccncc1)NN1C(=O)/C(=C/c2cccc(Br)c2)SC1c1cccc(Br)c1 | 50 µg/mL |  | agar diffusion | 13.4 mm |
| Cc1ccccc1NCc1cc2ccccc2nc1Cl | 200 µg/mL | MTCC 277 | agar diffusion | 7.03 mm |
| Cc1ccc2[nH]c3c(c2c1)c1ccccc1c1nnc(C(C)(C)C)n13 | 12.5 µg/mL | MTCC-1973 | agar diffusion / visual reading | 8 mm |
| CN1C(=O)/C(=c2/[nH][nH]c(=O)/c2=C\c2ccc(N)cc2)C(=O)c2ccccc21 | 1 mg/mL | ATCC 28542 | agar diffusion | 0 mm |
| Clc1ccc(-c2nn(-c3ccccc3)cc2C2CC(c3ccc(-c4ccccc4)cc3)=NN2c2ccccc2)cc1 | 1000 µg/mL |  |  | 5 mm |
| Cc1cc(=O)oc2c(C=Nc3cccc4cccc(N=Cc5c(O)ccc6c(C)cc(=O)oc56)c34)c(O)ccc12 | 200 µg/mL |  |  | 18 mm |
| Cc1ccc(N=Cc2c(-c3c(O)c4ccccc4n(C)c3=O)[nH][nH]c2=O)cc1 | 1 mg/mL | ATCC 28542 | agar diffusion | 20 mm |
| Cc1ccc(C2SCC(=O)N2NC(=O)CNC(=O)c2ccncc2)cc1 | 50 µg/mL |  | agar diffusion | 9 mm |
| CN1C(=O)/C(=c2/[nH][nH]c(=O)/c2=C\c2ccccc2)C(=O)c2ccccc21 | 1 mg/mL | ATCC 28542 | agar diffusion | 12 mm |
| CSc1ccc(C2=NN(c3ccccc3)C(c3cn(-c4ccccc4)nc3-c3ccccc3)C2)cc1 | 500 µg/mL |  |  | 0 mm |

For reference, 3 entries again:

structure,tested at,strain,method,value
COc1ccccc1C1SCC(=O)N1NC(=O)CNC(=O)c1ccncc1,50 µg/mL,,agar diffusion,12 mm
CN(Cc1cc2ccccc2nc1Cl)c1cccc(Cl)c1,200 µg/mL,MTCC 277,agar diffusion,12.08 mm
Cn1c(=O)c(-c2[nH][nH]c(=O)c2C=Nc2ccccc2)c(O)c2ccccc21,1 mg/mL,ATCC 28542,agar diffusion,11 mm

Lines come from different laboratories, so protocols vary. Zones are inhibition diameters on agar.